Each molecule was assayed against Unchecked (Burkholderia pseudomallei K96243, UniProt Q63Y17) (assay: Inhibition of Burkholderia pseudomallei recombinant His-tagged carbonic anhydrase beta (256 residues) expressed in Escherichia coli BL21 (DE3) incubated for 15 mins prior to testing by stopped flow CO2 hydration method).

Row | SMILES | Ki [µM]
1 | NS(=O)(=O)O | 83
2 | O=[As](O)(O)c1ccccc1 | 92
3 | NS(N)(=O)=O | 89

Reference: ChEMBL document CHEMBL3994664, “Comparison of the anion inhibition profiles of the β- and γ-carbonic anhydrases from the pathogenic bacterium Burkholderia pseudomallei” (2017)
